Data set [1] deals with Paracoccidioides brasiliensis S1 isolate 18 (Pb18). As to the kind of experiment: MIC by microdilution (CLSI M27-A3 modified, alamar blue), Pb18. In kind it is cell-based. The following applies: MRC5 IC50 / MIC Pb18.
The subject of data set [2] is P. lutzii Pb01-strain ATCC MYA-826. The data set can be described thus: MIC by microdilution (CLSI M27-A3 modified, alamar blue), Pb01. It is filed as cell-based, Paracoccidioides lutzii. The following applies: MRC5 IC50 / MIC Pb01.
Data set [3] concerns P. brasiliensis S2 (02) (Pb02). As to the kind of experiment: MIC by microdilution (CLSI M27-A3 modified, alamar blue), Pb02. It is filed as cell-based, Paracoccidioides brasiliensis. To be noted: MRC5 IC50 / MIC Pb02.

Molecules are shown by their SMILES.

On to `CCCCCCOC(=O)c1ccc(O)c(O)c1` [hexyl, hexyl protocatechuate], for which, in data set [1], the “SI (IC50/MIC Pb18)” value is on record as 7.5. In addition, the “SI (IC50/MIC Pb01)” value in data set [2] amounted to 3.8. Besides, the “SI (IC50/MIC Pb02)” value in data set [3] worked out at 15.5.
For the compound `CCCCCCCCCCOC(=O)c1ccc(O)c(O)c1` [decyl, decyl protocatechuate], in data set [1], the “SI (IC50/MIC Pb18)” value came to 16.5. Besides, in data set [2], the “SI (IC50/MIC Pb01)” value stood at 8.4. The “SI (IC50/MIC Pb02)” value in data set [3] came out at 33.3.
Take `C[C@@H]1[C@H](O)[C@@H](C)/C=C/C=C/C=C/C=C/C=C/C=C/C=C/[C@H](O[C@@H]2O[C@H](C)[C@@H](O)[C@H](N)[C@@H]2O)C[C@@H]2O[C@](O)(C[C@@H](O)C[C@@H](O)[C@H](O)CC[C@@H](O)C[C@@H](O)CC(=O)O[C@H]1C)C[C@H](O)[C@H]2C(=O)O` [AMB, Amphotericin B, reference compound]: the “SI (IC50/MIC Pb18)” value in data set [1] turned out to be 1.8. The “SI (IC50/MIC Pb01)” value in data set [2] came to 1.8.
Regarding `CCC(C)n1ncn(-c2ccc(N3CCN(c4ccc(OCC5COC(Cn6cncn6)(c6ccc(Cl)cc6Cl)O5)cc4)CC3)cc2)c1=O` (centres unmarked) [ITC, itraconazole, reference compound], the “SI (IC50/MIC Pb18)” value in data set [1] came to 5.0. For the same compound, in data set [2], the “SI (IC50/MIC Pb01)” value came out at 1.0. The “SI (IC50/MIC Pb02)” value in data set [3] was found to be 12.5.
On to `CCCCCCCCCOC(=O)c1ccc(O)c(O)c1` [nonyl, nonyl protocatechuate], for which the “SI (IC50/MIC Pb18)” value in data set [1] is on record as 9.3. Further, in data set [2], the “SI (IC50/MIC Pb01)” value came out at 18.2. Moreover, in data set [3], the “SI (IC50/MIC Pb02)” value came out at 36.9.
For `CCCCCCCOC(=O)c1ccc(O)c(O)c1` [heptyl, heptyl protocatechuate] the same measures were 2.3, 4.5 and 73.3.
For `CCCCCCCCOC(=O)c1ccc(O)c(O)c1` [octyl, octyl protocatechuate] the same measures were 34.7, 34.7 and 17.7.
Regarding `CCCCCCCCCCCCOC(=O)c1ccc(O)c(O)c1` [dodecyl, Dodecyl protocatechuate], the “SI (IC50/MIC Pb18)” value in data set [1] stood at 37.3. The “SI (IC50/MIC Pb01)” value in data set [2] turned out to be 37.3. Further, the “SI (IC50/MIC Pb02)” value in data set [3] is 74.7.

The values are drawn from paper PMC5466964, “Alkyl Protocatechuate-Loaded Nanostructured Lipid Systems as a Treatment Strategy for Paracoccidioides brasiliensis and Paracoccidioides lutzii In Vitro” (Frontiers in Microbiology, 2017).
